Source: article PMC10041525, “New Dual Inhibitors of Bacterial Topoisomerases with Broad-Spectrum Antibacterial Activity and In Vivo Efficacy against Vancomycin-Intermediate Staphylococcus aureus” (Journal of Medicinal Chemistry, 2023)

Format: physicochemical
Details: solubility assay
Protocol: For the PBS, 2.38 g of disodium hydrogen phosphate dodecahydrate, 0.19 g of potassium dihydrogen phosphate, and 8.0 g of sodium chloride were added to distilled water (900 mL), and the solution was mixed overnight. […] Samples were prepared by weighing the exact mass of solid compounds (about 1 mg), and then, the appropriate volume of PBS was added to reach the final concentration of ∼1 mg/mL. […] The supernatant was diluted 3× with a 1:1 mixture of 0.1% TFA in water and acetonitrile and analyzed by HPLC. For the 7-point calibration curves, concentrated stock solutions of the compounds were prepared at concentrations of 10 and 0.5 mM in DMSO, which were diluted with a 1:1 mixture of 0.1% TFA in water and acetonitrile to the desired final concentrations and analyzed by HPLC. Results are given in μM as an average value of two independent experiments. For details on calibration curves, concentrations, analytical method, and HPLC method, see the Supporting Information.
Thermodynamic solubility assay
To determine thermodynamic solubility of compounds in PBS, calibration curves for the assayed compounds were prepared using seven concentrations. First, DMSO stock solutions of compounds at 10 mM and 0.5 mM concentration were prepared and then diluted (0.1% TFA in […]
Quality control (QC) samples were diluted from stock solutions with a 1:1 mixture of 0.1% TFA in water and acetonitrile to final concentrations of 60 µM, 20 µM, and 2 µM (6 µM, 2 µM, and 0.2 µM for 7f or 0.6 µM, 0.2 µM, and 0.02 µM for 7g).
Analytical reversed-phase UHPLC analyses were performed on Thermo Scientific Dionex UltiMate 3000 modular system (Thermo Fisher Scientific Inc., MA, USA). Waters Acquity UPLC® HSS C18 SB column (2.1 × 50 mm, 1.8 μm; Waters, Milford, MA, USA) was used at T […]
Mobile phase consisted of 0.1% trifluoroacetic acid in ultrapure water (solvent A) and acetonitrile […]
The obtained data was processed in Chromeleon CDS software (Thermo Fisher Scientific Inc., […]
Analytical method was tested for accuracy, precision and linear rang. Accuracy was […]
(or 2 or 0.2) µM and 60 (or 6 or 0.6) µM) to their true values and expressed in (%). Values were […]
Method repeatability was determined by calculating the RSD from the separately prepared and analysed quality control samples (n = 3). […] Linearity of the […]
method (1 (or 0.1 or 0.01) µM to 100 (or 10 or 1) µM) was evaluated from the 7-point calibration […]
Solubility was determined in two independent experiments and results were calculated in […]

Structure (SMILES) | Recovery
Cc1[nH]c(C(=O)Nc2nc3c(N4CCOCC4C)cc(C(=O)O)cc3s2)c(Cl)c1Cl (stereo not drawn) [7b, 2-(3,4-Dichloro-5-methyl-1H-pyrrole-2-carboxamido)-4-(3-methylmorpholino)benzo[d]thiazole-6-carboxylic Acid] | 100.1%
Cc1[nH]c(C(=O)Nc2nc3c(N4CCOC[C@H]4C)cc(C(=O)O)cc3s2)c(Cl)c1Cl [7c, (R)-2-(3,4-Dichloro-5-methyl-1H-pyrrole-2-carboxamido)-4-(3-methylmorpholino)benzo[d]thiazole-6-carboxylic Acid] | 99.6%
Cc1[nH]c(C(=O)Nc2nc3c(N4CCOC[C@@H]4C)cc(C(=O)O)cc3s2)c(Cl)c1Cl [7d, (S)-2-(3,4-Dichloro-5-methyl-1H-pyrrole-2-carboxamido)-4-(3-methylmorpholino)benzo[d]thiazole-6-carboxylic Acid] | 110.7%
Cc1[nH]c(C(=O)Nc2nc3c(N4CCOC(C)C4)cc(C(=O)O)cc3s2)c(Cl)c1Cl (stereo not drawn) [7e, 2-(3,4-Dichloro-5-methyl-1H-pyrrole-2-carboxamido)-4-(2-methylmorpholino)benzo[d]thiazole-6-carboxylic Acid] | 114.5%
Cc1[nH]c(C(=O)Nc2nc3c(N4CC(C)OC(C)C4)cc(C(=O)O)cc3s2)c(Cl)c1Cl (stereo not drawn) [7f, 2-(3,4-Dichloro-5-methyl-1H-pyrrole-2-carboxamido)-4-(2,6-dimethylmorpholino)benzo[d]thiazole-6-carboxylic Acid] | 97.4%
Cc1[nH]c(C(=O)Nc2nc3c(N4C[C@H]5CC[C@@H](C4)O5)cc(C(=O)O)cc3s2)c(Cl)c1Cl [7g, 4-((1R,5S)-8-Oxa-3-azabicyclo[3.2.1]octan-3-yl)-2-(3,4-dichloro-5-methyl-1H-pyrrole-2-carboxamido)benzo[d]thiazole-6-carboxylic Acid] | 90.0%
COCC1CCCN1c1cc(C(=O)O)cc2sc(NC(=O)c3[nH]c(C)c(Cl)c3Cl)nc12 (stereo not drawn) [7n, 2-(3,4-Dichloro-5-methyl-1H-pyrrole-2-carboxamido)-4-(2-(methoxymethyl)pyrrolidin-1-yl)benzo[d]thiazole-6-carboxylic Acid] | 104.4%
COC[C@@H]1CCCN1c1cc(C(=O)O)cc2sc(NC(=O)c3[nH]c(C)c(Cl)c3Cl)nc12 [7o, (S)-2-(3,4-Dichloro-5-methyl-1H-pyrrole-2-carboxamido)-4-(2-(methoxymethyl)pyrrolidin-1-yl)benzo[d]thiazole-6-carboxylic Acid] | 90.5%
Cc1[nH]c(C(=O)Nc2nc3c(N4CCC(O)CC4)cc(C(=O)O)cc3s2)c(Cl)c1Cl [7p, 2-(3,4-Dichloro-5-methyl-1H-pyrrole-2-carboxamido)-4-(4-hydroxypiperidin-1-yl)benzo[d]thiazole-6-carboxylic Acid] | 103.8%
Cc1[nH]c(C(=O)Nc2nc3c(N4CCC5(CC4)OCCO5)cc(C(=O)O)cc3s2)c(Cl)c1Cl [7r, 2-(3,4-Dichloro-5-methyl-1H-pyrrole-2-carboxamido)-4-(1,4-dioxa-8-azaspiro[4.5]decan-8-yl)benzo[d]thiazole-6-carboxylic Acid] | 87.7%
Cc1[nH]c(C(=O)Nc2nc3c(N4CCOCC4)cc(C(=O)O)cc3s2)cc1Cl [16a, 2-(4-Chloro-5-methyl-1H-pyrrole-2-carboxamido)-4-morpholinobenzo[d]thiazole-6-carboxylic Acid] | 105.1%
Cc1[nH]c(C(=O)Nc2nc3c(N4CCOCC4)cc(C(=O)O)cc3s2)cc1F [16b, 2-(4-Fluoro-5-methyl-1H-pyrrole-2-carboxamido)-4-morpholinobenzo[d]thiazole-6-carboxylic Acid] | 101.6%
